Source: a compilation of properties of binary mixtures (doi:10.1021/acs.jced.8b00334)

Test: xn = mol fraction of the nth substance listed
Settings: 101.3 kPa

CCCC[N+]1(C)CCCC1.O=C1O[B-]2(OC1=O)OC(=O)C(=O)O2 + CCCC[N+]1(C)CCCC1.O=S(=O)(F)[N-]S(=O)(=O)F
Settings | mass density, x2 = 0 [kg/m3] | mass density, x2 = 0.2 [kg/m3] | mass density, x2 = 0.4 [kg/m3] | mass density, x2 = 0.6 [kg/m3] | mass density, x2 = 0.8 [kg/m3] | viscosity, x2 = 0 [mPa·s] | viscosity, x2 = 0.2 [mPa·s] | viscosity, x2 = 0.4 [mPa·s] | viscosity, x2 = 0.6 [mPa·s] | viscosity, x2 = 0.8 [mPa·s]
283.15 K | – | – | – | 1310 | 1321 | – | – | – | 1372 | 510
288.15 K | – | – | – | – | 1317 | – | – | – | – | 361
293.15 K | – | – | 1289 | 1301 | 1313 | – | – | 1242 | 580 | 261
298.15 K | – | 1271 | 1285 | 1297 | 1309 | – | 1362 | 790 | 399 | 194
303.15 K | 1255 | – | 1280 | 1293 | 1305 | 1732 | – | 530 | 283 | 147
308.15 K | – | 1263 | 1276 | 1289 | 1301 | – | 560 | 362 | 206 | 114
313.15 K | 1246 | 1259 | 1272 | – | 1297 | 670 | 375 | 257 | – | 90
318.15 K | – | 1254 | 1268 | 1281 | 1293 | – | 263 | 188 | 117 | 72
323.15 K | 1238 | 1250 | 1264 | 1277 | 1289 | 309 | 190 | 140 | 91 | 59
328.15 K | 1234 | 1246 | 1260 | 1273 | 1285 | 219 | 141 | 107 | 72 | 48.5
333.15 K | – | 1242 | 1256 | 1269 | 1282 | 160 | 107 | 84 | 58 | 40.5
338.15 K | – | 1238 | 1252 | 1265 | 1278 | 120 | 83 | 66 | 47.8 | 34.2
343.15 K | – | 1234 | 1248 | 1261 | 1274 | 92 | 66 | 54 | 39.7 | 29.2
348.15 K | – | 1230 | 1244 | 1257 | 1270 | 72 | 53 | 44 | 33.3 | 25.1
353.15 K | 1214 | – | 1240 | 1253 | 1266 | 58 | – | 36.6 | 28.3 | 21.9

CCC[N+]1(C)CCCCC1.O=S(=O)([N-]S(=O)(=O)C(F)(F)F)C(F)(F)F + CCC[N+]1(C)CCCCC1.O=S(=O)(F)[N-]S(=O)(=O)F
x1 = 1
Settings | mass density [kg/m3] | viscosity [mPa·s]
308.15 K | – | 87
313.15 K | – | 69
318.15 K | – | 55
328.15 K | – | 37.3
333.15 K | – | 31.4
338.15 K | 1374 | 26.6
343.15 K | – | 22.9
348.15 K | 1365 | 19.8

CCCC[N+]1(C)CCCC1.O=S(=O)(F)[N-]S(=O)(=O)F + CCCC[N+]1(C)CCCC1.O=C1O[B-]2(OC1=O)OC(=O)C(=O)O2
x1 = 1
Settings | mass density [kg/m3] | viscosity [mPa·s]
283.15 K | 1331 | 174
288.15 K | 1327 | –
298.15 K | 1319 | –
303.15 K | 1316 | 70
313.15 K | 1308 | 48.6
318.15 K | 1304 | 41.2
333.15 K | 1293 | 26.4
338.15 K | 1289 | 23.1
343.15 K | 1286 | –
348.15 K | 1282 | 18.1
353.15 K | 1278 | 16.2
